Anti-infective test results gathered from many reports (values: NIAID ChemDB through PubChem).

Shared fields: whole-cell or culture tests; organism: Hepatitis B virus; measure: EC50

a–b is a range or a potency band. ECn: concentration that inhibits the pathogen or its effect by n%. Blank or dashed fields: not listed here. Rows are shuffled and stem from different studies.

smiles	conditions	strain	cells	read by	result
C[C@@H](NC(=O)c1c2n(c(=O)n1-c1ccc(OC3CC3)cc1)CCN(C(=O)c1ccc(Br)c(Cl)c1)C2)c1ccc(OCC(N)=O)cc1F	-	-	HepG2.117	PCR	0.5–5 µM
CNC(=O)c1ccc(-n2c(=O)c3c(n4ncc(Cc5ccccc5)c24)CN(C(=O)c2ccc(Br)c(C#N)c2)CC3)cc1	3 d	-	HepG2.117	PCR	<0.1 µM
C[C@H]1Cc2c(n3ncc(CC4CC4)c3n(-c3ccc(-c4nncn4C)cc3)c2=O)CN1C(=O)c1ccc(Br)c(C(F)(F)F)c1	-	-	HepG2.117	luminescence	0.05–0.5 µM
CCNC(=O)C(=O)N1CC[C@@H](NS(=O)(=O)c2cn(C)c(C(=O)Nc3ccc(F)c(F)c3)c2F)C(C)(C)C1	-	-	HepAD38 cells	PCR	<0.1 µM
Cc1cc(C(=O)N2CCS(=O)(=O)[C@@H](c3cccs3)C2)ccc1Cl	-	-	HepG2.2.15	PCR	0.5–5 µM
C[C@H]1Cc2c(n3ncc(CC4CC4)c3n(-c3ccc(-c4nc(=O)on4C)cc3)c2=O)CN1C(=O)c1ccc(Br)c(C(F)(F)F)c1	-	-	HepG2.117	luminescence	≤0.05 µM
C[C@@H](NC(=O)c1c2n(c(=O)n1-c1ccc(OC3CC3)cc1)C[C@H](C)N(C(=O)c1ccc(Br)c(Cl)c1)C2)c1ccccc1F	-	-	HepG2.117	PCR	0.1–0.5 µM
CNC(=O)c1ccc(-n2c(=O)c3c(n4ncc(Cc5ccccc5)c24)CN(C(=O)c2ccc(Br)c(Cl)c2)CC3)cc1	3 d	-	HepG2.117	PCR	<0.1 µM
CC(C)Oc1ccc(-n2c(C(=O)NCc3ccccc3C(N)=O)c3n(c2=O)CCN(C(=O)c2ccc(Br)c(Cl)c2)C3)cc1	-	-	HepG2.117	PCR	>5 µM
O=C(c1ccc(Br)c(Cl)c1)N1CCS(=O)(=O)[C@@H](c2cccs2)C1	-	-	HepG2.2.15	PCR	<0.1 µM
Cc1c(C(=O)C(=O)NC2(C#C[C@@H](C)O)COC2)c(C)n(C)c1C(=O)Nc1ccc(F)c(C#N)c1	-	-	HepG2.2.15	PCR	0.01–0.099 µM
CC(C)Cc1cnn2c3c(c(=O)n(-c4ccc(-c5nncn5C)cc4)c12)C[C@@H](C)N(C(=O)c1ccc(Br)c(C(F)(F)F)c1)C3	-	-	HepG2.117	luminescence	≤0.05 µM
CC(C)Oc1ccc(-n2c(C(=O)NCc3ccccc3)c3n(c2=O)CCN([C@H](c2ccc(Br)c(Cl)c2)C(F)(F)F)C3)cc1	-	-	HepG2.117	PCR	>5 µM
C[C@H]1Cc2c(n3ncc(Cc4ccccc4)c3n(-c3ccc(-c4ncnn4C)cc3)c2=O)CN1C(=O)c1ccc(Br)c(C(F)(F)F)c1	-	-	HepG2.117	luminescence	0.05–0.5 µM
C#CCNC(=O)C(=O)c1cc(C(=O)Nc2ccc(F)c(C#N)c2)n(C)c1Cl	-	-	HepG2.2.15	PCR	0.1–0.999 µM
C[C@H]1CS(=O)(=O)[C@H](c2cccs2)CN1C(=O)c1ccc(Br)c(Cl)c1	-	-	HepG2.2.15	PCR	0.1–0.5 µM
CNC(=O)c1ccc(-n2c(=O)c3c(n4ncc(CC(C)C)c24)CN(C(=O)c2ccc(Br)c(Cl)c2)[C@H](C)C3)cc1	-	-	HepG2.117	luminescence	≤0.05 µM
C[C@@H](c1cnc([C@@]2(F)CN(C(=O)c3ccc(Br)c(C#N)c3)CCS2(=O)=O)s1)c1ccccc1F	-	-	HepG2.117	PCR	<0.1 µM
CN1[C@H](C(=O)Nc2ccc(F)c(Cl)c2)C[C@H](c2ncc(-c3cn(C)cn3)s2)NS1(=O)=O	-	Genotype D	HepAD38	fluorescence	0.022 µM
C[C@@H]1Cn2c(c(C(=O)NCc3ccccc3-c3ncccn3)n(-c3ccc(OC4CC4)cc3)c2=O)CN1C(=O)c1ccc(Br)c(C#N)c1	-	-	HepG2.117	PCR	0.1–0.5 µM
C#CC(C)(CC)NC(=O)C(=O)c1c(C)c(C(=O)Nc2ccc(F)c(F)c2)n(C)c1C	-	-	HepG2.2.15	PCR	0.001–0.0099 µM
CNC(=O)c1ccc(-n2c(=O)c3c(n4ncc(Cc5ccccc5)c24)CN(C(=O)c2ccc(Br)c(C(F)(F)F)c2)[C@H](C)C3)nc1	-	-	HepG2.117	luminescence	0.05–0.5 µM
CC(C)Oc1ccc(-n2c(C(=O)N[C@@H](C)c3ccc(C#N)cc3)c3n(c2=O)CCN(C(=O)c2ccc(Br)c(Cl)c2)C3)cc1	-	-	HepG2.117	PCR	0.1–0.5 µM
CCCNC(=O)C(=O)N1CC[C@@H](NS(=O)(=O)c2cn(C)c(C(=O)Nc3cc(F)c(F)c(F)c3)c2F)C(F)(F)C1	-	-	HepAD38 cells	PCR	<0.1 µM
C=C[C@](CO)(NC(=O)C(=O)c1c(C)c(C(=O)Nc2ccc(F)c(C(F)(F)F)c2)n(C)c1C)C(F)(F)F	-	-	HepG2.2.15	PCR	0.001–0.0099 µM
CCNC(=O)C(=O)N1CCC(NS(=O)(=O)c2cn(C)c(C(=O)Nc3cc(F)c(F)c(F)c3)c2Cl)CC1	-	-	HepAD38 cells	PCR	<0.1 µM
C[C@@H]1Cc2c(n3ncc(Cc4ccccc4)c3n(-c3ccc(-c4n[nH]c(=O)n4C)cc3)c2=O)CN1C(=O)c1ccc(Br)c(C(F)(F)F)c1	-	-	HepG2.117	luminescence	≤0.05 µM
Cc1c(C(=O)C(=O)NC(C)(C)c2ccncn2)c(C)n(C)c1C(=O)Nc1ccc(F)c(C(F)(F)F)c1	-	-	HepG2.2.15	PCR	<0.001 µM
CNC(=O)c1ccc(-n2c(=O)c3c(n4ncc(CC(C)C)c24)CN(C(=O)c2ccc(Br)c(Cl)c2)[C@@H](C)C3)cc1	-	-	HepG2.117	luminescence	0.05–0.5 µM
C#C[C@@](C)(CO)NC(=O)C(=O)c1c(C)c(C(=O)Nc2ccc(F)c(C#N)c2)n(C)c1C	-	-	HepG2.2.15	PCR	0.001–0.0099 µM
C[C@H]1Cn2c(c(C(=O)NCc3ccccc3-c3ncccn3)n(-c3ccc(-n4cccn4)cc3)c2=O)CN1C(=O)c1ccc(Br)c(C#N)c1	-	-	HepG2.2.15	PCR	0.5–5 µM
C[C@@H]1Cc2c(n3ncc(Cc4ccccc4)c3n(-c3ccc(-n4nnnc4C(F)(F)F)cc3)c2=O)CN1C(=O)c1ccc(Br)c(C(F)(F)F)c1	-	-	HepG2.117	luminescence	≤0.05 µM
CNC(=O)c1ccc(-n2c(=O)c3c(n4ncc(NCc5ccc(OCC(N)=O)cc5)c24)CN(C(=O)c2ccc(Cl)c(Cl)c2)CC3)cc1	3 d	-	HepG2.117	PCR	0.5–5 µM
CCNC(=O)C(=O)N1CCC(NS(=O)(=O)c2cn(C)c(C(=O)Nc3cc(F)c(F)c(F)c3)c2Cl)C2(CC2)C1	-	-	HepAD38 cells	PCR	<0.1 µM
C[C@H](NC(=O)c1c2n(c(=O)n1-c1ccc(OC3CC3)cc1)C[C@@H](C)N(C(=O)c1ccc(Br)c(Cl)c1)C2)c1ccccc1	-	-	HepG2.117	PCR	0.5–5 µM
CNC(=O)c1ccc(-n2c(=O)c3c(n4ncc(NCc5ccc(C#N)cc5)c24)CN(C(=O)c2ccc(Br)c(Cl)c2)CC3)cc1	3 d	-	HepG2.117	PCR	0.1–0.5 µM

A second listing of 3 rows from above:

smiles	conditions	strain	cells	read by	result
CNC(=O)c1ccc(-n2c(=O)c3c(n4ncc(Cc5ccccc5)c24)CN(C(=O)c2ccc(Br)c(Cl)c2)CC3)cc1	3 d	-	HepG2.117	PCR	<0.1 µM
CNC(=O)c1ccc(-n2c(=O)c3c(n4ncc(NCc5ccc(C#N)cc5)c24)CN(C(=O)c2ccc(Br)c(Cl)c2)CC3)cc1	3 d	-	HepG2.117	PCR	0.1–0.5 µM
C[C@@H]1Cc2c(n3ncc(Cc4ccccc4)c3n(-c3ccc(-c4n[nH]c(=O)n4C)cc3)c2=O)CN1C(=O)c1ccc(Br)c(C(F)(F)F)c1	-	-	HepG2.117	luminescence	≤0.05 µM